Deep mutational scan of the Zika virus protease

The measurements come from Ni et al. 2025 (doi:10.1038/s41467-025-63602-z).

Protein: NS2B and the protease part of NS3 of Zika virus strain MR766. Positions count along the chain below; NS2B spans 2-131 and NS3 starts at 132.
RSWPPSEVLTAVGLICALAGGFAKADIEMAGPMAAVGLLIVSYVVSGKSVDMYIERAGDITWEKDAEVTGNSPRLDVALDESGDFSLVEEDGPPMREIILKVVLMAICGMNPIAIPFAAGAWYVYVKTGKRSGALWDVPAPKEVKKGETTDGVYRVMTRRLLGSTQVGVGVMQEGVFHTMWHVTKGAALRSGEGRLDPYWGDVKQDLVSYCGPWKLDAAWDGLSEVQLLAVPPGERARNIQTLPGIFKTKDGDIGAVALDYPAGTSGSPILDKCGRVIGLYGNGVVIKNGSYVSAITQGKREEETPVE

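Libraries of single mutants were passaged as virus pools on Huh-7.5 cells. Sequencing of three replicate libraries (two for positions 207-308) was averaged into one effect per change. The study looked for pockets that tolerate few changes, as a guide for inhibitor design.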

Scale: log2 effect, wild type = 0; the lower, the more harmful to the virus. Each entry names the wild-type residue, its position and the residue put in its place. This list holds changes to glycine only. The authors count -1 or higher as tolerated. Position 1 is the last residue of NS2A. Positions 1-103, 104-206 and 207-308 were made and measured as separate libraries. Six mutants with high scores were retested singly and none clearly outgrew wild type, so positive values are not proof of better growth.

K130G gave -6.47.
R131G gave -6.65.
S132G gave -1.82.
A134G gave -6.74.
L135G gave -7.75.
W136G gave -6.83.
D137G gave -7.17.
V138G gave -7.17.
P139G gave -6.13.
A140G gave -6.11.
P141G gave -5.45.
K142G gave -5.37.
E143G gave -2.61.
V144G gave -5.19.
K145G gave -3.28.
K146G gave -3.10.
E148G gave -2.10.
T149G gave -5.74.
T150G gave -0.99.
D151G gave -4.11.
V153G gave -6.43.
Y154G gave -6.24.
R155G gave -6.45.
V156G gave -6.92.
M157G gave -6.17.
T158G gave 2.93.
R159G gave -6.06.
R160G gave -2.61.
L161G gave -6.19.
L162G gave -6.35.
S164G gave -2.03.
T165G gave -0.88.
Q166G gave -6.39.
V167G gave -7.26.
V169G gave -6.75.
V171G gave -6.64.
M172G gave -6.87.
Q173G gave -6.25.
E174G gave -5.93.
V176G gave -6.33.
F177G gave -6.60.
H178G gave -6.09.
T179G gave -6.66.
M180G gave -5.50.
W181G gave -6.30.
H182G gave -5.16.
V183G gave -7.08.
T184G gave -6.49.
K185G gave -5.01.
A187G gave -4.19.
A188G gave -3.25.
L189G gave -5.36.
R190G gave -3.61.
S191G gave -5.74.
E193G gave -0.80.
R195G gave -5.66.